Compound potency records, mixed from different reports. Data source: NIAID ChemDB in PubChem.

All rows: growth or infection tests; species: Mycobacterium avium

Two numbers with a dash give a range or band.

structure,read by,read-out,conditions,strain or isolate,result
CCCCCOc1ccc(NC(=O)OCCN2CCCCCC2)cc1,-,MIC,-,MY330/88,32 µM
O=C(Nc1cccc(C(F)(F)F)c1)c1ccc(Cl)cc1OS(=O)(=O)c1ccccc1,-,MIC,21 d,330/88,125 µM
COc1ccc2oc(=O)n(-c3ccc(F)cc3)c(=O)c2c1,-,MIC,-,CNCTC MY330/88,125 µM
CCCCCCOc1ccc(NC(=O)OCCN2CCOCC2)cc1,-,MIC,-,MY330/88,16 µM
CCCCOc1ccccc1NC(=O)OCC[NH+]1CCCC1,-,MIC,-,MY330/88,250 µM
O=C(Oc1ccc(Cl)cc1C(=O)Nc1ccc(Br)cc1)c1cnccn1,-,MIC,14 d,330/88,8 µM
CCCCCOc1ccccc1NC(=O)OCCN(C)C,-,MIC,-,MY330/88,32 µM
CC(=O)Oc1c(Cl)cccc1C(=O)Nc1cccc(Cl)c1,-,MIC,-,MY330/88,16 µg/mL
CCCCCCCCCOc1ccc(NC(=O)OCC[NH+]2CCCC2)cc1,-,MIC,-,MY330/88,16 µM
O=C(Oc1cc(Cl)ccc1C(=O)Nc1ccc(C(F)(F)F)cc1)c1ccccc1,broth dilution,MIC,14 d,330/88,2 µM
O=c1oc2ccc(Cl)cc2c(=O)n1-c1ccc(F)cc1,-,MIC,-,CNCTC MY330/88,31 µM
Brc1ccc(CSc2ncn[nH]2)cc1,-,MIC,-,MY330/88,250 µM
CC(=O)Oc1cc(Cl)ccc1C(=O)Nc1ccc(Br)cc1,-,MIC,-,MY330/88,8 µg/mL
CCCCOc1cccc(NC(=O)OCCC[NH+]2CCCCC2)c1,-,MIC,-,MY330/88,62.5 µM
Cc1nc2scc(-c3ccco3)c2c(=O)n1/N=C/C1CCCCC1,-,MIC,-,CNCTC MY330/88,57 µM
CC(=O)Oc1c(Cl)cccc1C(=O)Nc1ccc(Cl)c(Cl)c1,-,MIC,-,MY330/88,8 µg/mL
CCCCOc1ccc(NC(=O)OCC[NH+]2CCCC2)cc1,-,MIC,-,MY330/88,250 µM
CC(C)N1CCN(c2cc3c(cc2F)c(=O)c(C(=O)O)cn3C2CC2)CC1,-,MIC50,-,-,1 µg/mL
Cc1nc2scc(-c3ccco3)c2c(=O)n1/N=C/c1cccs1,-,MIC,-,CNCTC MY330/88,65 µM
Cc1ccn2c(C(=O)NCc3cccc(OC(F)(F)F)c3)c(C)nc2c1,resazurin,MIC,-,2151,2–10 µM
CCOc1ccc(NC(=O)OCCC[NH+]2CCCCC2)cc1,-,MIC,-,MY330/88,500 µM
CCCCCCOc1ccccc1NC(=O)OCC[NH+]1CCCC1,-,MIC,-,MY330/88,32 µM
O=C(O)c1cn(C2CC2)c2cc(N3CCN(c4ccccc4)CC3)c(F)cc2c1=O,-,MIC50,-,-,4 µg/mL
CC(=O)Oc1cc(Cl)ccc1C(=O)Nc1ccc(C(F)(F)F)cc1,-,MIC,-,MY330/88,4 µg/mL
O=C(Oc1cc(Cl)ccc1C(=O)Nc1ccc(Br)cc1)c1cnccn1,-,MIC,14 d,330/88,4 µM
Cc1ccc(CSc2ncn[nH]2)cc1,-,MIC,-,MY330/88,500 µM
CCCCCCCCOc1cccc(NC(=O)OCCC[NH+]2CCCCC2)c1,-,MIC,-,MY330/88,16 µM
Cc1ccc2c(=O)n(-c3ccc(Cl)cc3)c(=O)oc2c1,-,MIC,-,CNCTC MY330/88,8 µM
CC(C)c1ccc(N2C(=S)c3cc(Cl)ccc3NC2(C)C)cc1,-,MIC,-,MY330/88,>250 µg/mL
CC(=O)NC[C@H]1CN(c2ccc(N3CCN(c4ccc([N+](=O)[O-])s4)CC3)c(F)c2)C(=O)O1,-,MIC,-,4,<0.125 µg/mL
Cc1nc2scc(-c3ccco3)c2c(=O)n1/N=C/c1ccc(Cl)cc1Cl,-,MIC,-,CNCTC MY330/88,5 µM
Cc1ccc2oc(=O)n(-c3ccc(Cl)cc3)c(=O)c2c1,-,MIC,-,CNCTC MY330/88,16 µM
CN[C@@H]1[C@H](O[C@H]2[C@H](O[C@H]3[C@H](O)[C@@H](O)[C@H](N=C(N)N)[C@@H](O)[C@@H]3N=C(N)N)O[C@@H](C)[C@]2(O)C=O)O[C@@H](CO)[C@H](O)[C@H]1O,-,MIC,-,Strain 1,3.13 µg/mL
O=C(Oc1cc(Cl)ccc1C(=O)Nc1ccc(Br)cc1)c1ccccc1,broth dilution,MIC,21 d,330/88,4 µM
CCCCCCCCCCCCOc1ccccc1NC(=O)OCCC[NH+]1CCCCC1,-,MIC,-,MY330/88,8 µM
Cc1nc2scc(-c3ccco3)c2c(=O)n1/N=C/c1ccc(Cl)cc1,-,MIC,-,CNCTC MY330/88,12 µM
Clc1ccc2c(c1)nc1cc(Nc3ccccc3)c(=NC3CCCCC3)cc-1n2-c1ccccc1,-,MIC,-,8775,2 µg/mL
O=C(NC1CCCCC1)N(C(=O)c1cnccn1)C1CCCCC1,-,MIC,21 d,330/88,>500 µM
C(=C\c1ccccc1)/CNc1cccc(CN2CCOCC2)c1,-,MIC,-,103317,32 µg/mL
O=C(Oc1cc(Cl)ccc1C(=O)Nc1ccc(F)cc1)c1ccccc1,broth dilution,MIC,14 d,330/88,4 µM
O=[N+]([O-])c1cccc(F)c1CSc1ncn[nH]1,-,MIC,-,MY330/88,>1000 µM
Cc1nc2scc(-c3ccco3)c2c(=O)n1NC(=O)c1ccc(Cl)cc1,-,MIC,-,CNCTC MY330/88,20 µM
CCOc1ccccc1NC(=O)OCC[NH+]1CCCC1,-,MIC,-,MY330/88,>1000 µM
O=C(Oc1ccc(Cl)cc1C(=O)Nc1ccc(F)cc1)c1cnccn1,-,MIC,14 d,330/88,8 µM
Cc1cn2c(C(=O)NCc3ccc(N4CCC(c5ccc(OC(F)(F)F)cc5)CC4)cc3)c(C)nc2s1,resazurin,MIC,-,101,<2 µM
CCCCCCCCOc1ccc(NC(=O)OCCC[NH+]2CCCCC2)cc1,-,MIC,-,MY330/88,16 µM
O=C(Nc1ccc(Cl)c(Cl)c1)c1cc(Cl)ccc1OS(=O)(=O)c1ccccc1,-,MIC,21 d,330/88,16 µM
Cc1nc2scc(-c3ccco3)c2c(=O)n1NC(=O)C1CC1,-,MIC,-,CNCTC MY330/88,218 µM
CC(C)c1c(O)cc(C(N=C(N)N)C(=O)NCC(=O)O)cc1O,-,MIC,-,Strain 1,6.25 µg/mL
O=C(Nc1ccc(C(F)(F)F)cc1)c1cc(Cl)ccc1OS(=O)(=O)c1ccccc1,-,MIC,14 d,330/88,125 µM
CCCCCCOc1ccc(NC(=O)OCCC[NH+]2CCCCC2)cc1,-,MIC,-,MY330/88,16 µM
CC1=CCC[C@@]2(C)O[C@H]2[C@H]2OC(=O)[C@@H](C)[C@@H]2CC1,-,MIC,-,-,128 µg/mL
CCc1nc2ccc(Cl)cn2c1C(=O)NCc1ccc(N2CCSCC2)c(F)c1,resazurin,MIC,-,A5,>1 µg/mL
Fc1cccc(Cl)c1CSc1ncn[nH]1,-,MIC,-,MY330/88,500 µM
Cc1nc2ccc(Cl)cc2c(=S)n1-c1ccc(C(C)C)cc1,-,MIC,-,MY330/88,31 µg/mL
Cc1nc2scc(-c3ccco3)c2c(=O)n1/N=C/c1ccc(F)cc1F,-,MIC,-,CNCTC MY330/88,5 µM
Cc1ccn2c(C(=O)NCc3ccc(N4CCC(c5ccc(C(F)(F)F)cc5)CC4)nc3)c(C)nc2c1,resazurin,MIC,-,2151,2–10 µM
O=C(Oc1ccc(Br)cc1C(=O)Nc1ccc(C(F)(F)F)cc1)c1cnccn1,-,MIC,21 d,330/88,4 µM
CN1CCN(Cc2cccc(N=C/C=C/c3ccccc3)c2)CC1,-,MIC,-,103317,32 µg/mL
COc1ccc(NC(=O)OCCC[NH+]2CCCCC2)cc1,-,MIC,-,MY330/88,1000 µM
COc1cccc(NC(=O)OCCN2CCCCC2)c1,-,MIC,-,MY330/88,1000 µM
CS(C)=O,resazurin,MIC,-,2151,>1 µg/mL
C(=C\c1ccccc1)/CNc1ccccc1Cn1ccnc1,-,MIC,-,103317,1 µg/mL
O=C(Nc1ccc(Cl)cc1)c1cc(Cl)ccc1OS(=O)(=O)c1ccccc1,-,MIC,14 d,330/88,32 µM
Cc1nc2scc(-c3ccco3)c2c(=O)n1/N=C/C1CC1,-,MIC,-,CNCTC MY330/88,61 µM
CC1(C)Nc2ccccc2C(=S)N1c1ccc(Cl)c(Cl)c1,-,MIC,-,MY330/88,62.5 µg/mL
CCCOc1cccc(NC(=O)OCCN(C)C)c1,-,MIC,-,MY330/88,500 µM
C(=C\c1ccccc1)/CNc1cccc(Cn2ccnc2)c1,-,MIC,-,103317,2 µg/mL

Again, the opening 7 rows:

structure | read by | read-out | conditions | strain or isolate | result
CCCCCOc1ccc(NC(=O)OCCN2CCCCCC2)cc1 | - | MIC | - | MY330/88 | 32 µM
O=C(Nc1cccc(C(F)(F)F)c1)c1ccc(Cl)cc1OS(=O)(=O)c1ccccc1 | - | MIC | 21 d | 330/88 | 125 µM
COc1ccc2oc(=O)n(-c3ccc(F)cc3)c(=O)c2c1 | - | MIC | - | CNCTC MY330/88 | 125 µM
CCCCCCOc1ccc(NC(=O)OCCN2CCOCC2)cc1 | - | MIC | - | MY330/88 | 16 µM
CCCCOc1ccccc1NC(=O)OCC[NH+]1CCCC1 | - | MIC | - | MY330/88 | 250 µM
O=C(Oc1ccc(Cl)cc1C(=O)Nc1ccc(Br)cc1)c1cnccn1 | - | MIC | 14 d | 330/88 | 8 µM
CCCCCOc1ccccc1NC(=O)OCCN(C)C | - | MIC | - | MY330/88 | 32 µM

Conditions beyond the fields shown may differ between rows. Blank or dashed fields: not listed here. MIC50, MIC90 and the like: level of inhibition, or share of isolates inhibited.